Biological target: SARS-CoV-2 spike on pseudovirus or live virus (USA-WA1/2020, WT) (SARS-CoV-2, UniProt P0DTC2 14-1273)
Test: cell-based or functional assay

B1: L12.bP11A06 (antibody, V domains shown)
VH: EVQLVESGGGLIQPGGSLRLSCAASGLTVSSNYMSWVRQAPGKGLEWVSVIYSGGSTFYADSVKGRFTISRDNSKNTLYLQMNSLRAEDTAVYYCARDLDVYGLDVWGQGTTVTVSS
VL: DIVMTQSPSFLSASVGDRVTITCRASQGISSYLAWYQQKPGKAPKLLIYAASTLQSGVPSRFSGSGSGTEFTLTISSLQPEDFATYYCQQLNSYPPKFTFGPGTKVEIK
PSV neutralization IC50: 0.017 µg/mL

From patent US20230357364A1 (INTERNATIONAL AIDS VACCINE INITIATIVE, published 2023)
